Anti-infective test results gathered from many reports (values: NIAID ChemDB through PubChem).

All rows: whole-cell or culture tests; organism: HIV-1; cell line: CEM + CEM-SS; read-out: EC50

ECn: concentration that inhibits the pathogen or its effect by n%.

| SMILES | strain | changes | method | value |
|---|---|---|---|---|
| Fc1cccc(F)c1C1SCc2nc3ccccc3n21 | G | - | cytopathic effect / XTT | 1.115 µM |
| Cc1ccnc2c1NC(=O)c1cccnc1N2C1CC1 | UC38-R(RT-Y181C | RT-Y181C | cytopathic effect / XTT | 13.8 µM |
| O=S(=O)(c1ccccc1)c1ccccc1 | Calanolide A-resistant (RT T139I) | RT-T139I | XTT | 16 µM |
| C/C=C/CSc1cc(NC(=S)c2ccsc2C)ccc1Cl | 3TC-RS (RT-M184I) | RT-M184I | cytopathic effect / XTT | 0.1 µM |
| Cc1cn([C@H]2C[C@H](N=[N+]=[N-])[C@@H](CO)O2)c(=O)[nH]c1=O | IIIB | RT-L100I | cytopathic effect / XTT | 0.04 µM |
| CCc1c(C(=O)c2cc(C)cc(C)c2)n(CC2CC=CC2)c(=O)[nH]c1=O | NL4-3 | RT-V106I | cytopathic effect / XTT | 0.0006 µM |
| Cc1ccnc2c1NC(=O)c1cccnc1N2C1CC1 | RF | - | XTT | 0.2 µM |
| CCc1c(Sc2ccccn2)n(COCc2ccccc2)c(=O)[nH]c1=O | IIIB | RT-K103N Y181C | cytopathic effect / XTT | >13.6 µM |
| Cc1ccnc2c1NC(=O)c1cccnc1N2C1CC1 | SK1 | - | cytopathic effect / XTT | 0.2 µM |
| O=S1(c2ccccc2)=NC(=S)Nc2ccccc21 | KELL | - | cytopathic effect / XTT | 5.07 µM |
| Cc1cn([C@H]2C[C@H](N=[N+]=[N-])[C@@H](CO)O2)c(=O)[nH]c1=O | LAV | - | cytopathic effect / XTT | 0.002 µM |
| CC(C)=CCN1Cc2cc(Cl)cc3[nH]c(=S)n(c23)C[C@@H]1C | MN | - | cytopathic effect / MTT | 0.124 µM |
| CCCc1cc(=O)oc2c3c(c4c(c12)OC(C)(C)C=C4)O[C@@H](C)[C@H](C)[C@@H]3O | NL4-3 | - | XTT | 0.2 µM |
| NC1N=S(=O)(c2ccccc2)c2ccccc2N1 | IIIB | - | cytopathic effect / XTT | 119 µM |
| Cc1ccnc2c1NC(=O)c1cccnc1N2C1CC1 | NL4-3 | RT-L100I | cytopathic effect / XTT | 0.1 µM |
| Cc1cn([C@H]2C[C@H](N=[N+]=[N-])[C@@H](CO)O2)c(=O)[nH]c1=O | NL4-3 | RT-K103N | XTT | 0.004 µM |
| O=S(=O)([O-])c1ccc([NH+]=C2C=CC(=C(c3ccc(Nc4ccc(S(=O)(=O)O)cc4)cc3)c3ccc(Nc4ccc(S(=O)(=O)O)cc4)cc3)C=C2)cc1 | RF | - | cytopathic effect / XTT | 20 µM |
| Cc1occc1C(=S)Nc1ccc(Cl)c(/C=N/OC(C)(C)C)c1 | Oxathiin carboxanilide-resistant RT L100I | RT-L100I | cytopathic effect / XTT | 2 µM |
| CN1N=C(N)c2cn([C@@H]3O[C@H](COP(=O)(O)O)[C@@H](O)[C@H]3O)c3ncnc1c23 | PM16 | - | XTT | 0.11 µM |
| CCCc1cc(=O)oc2c3c(c4c(c12)OC(C)(C)C=C4)O[C@H](C)[C@@H](C)[C@@H]3O | NL4-3 | RT-V108I | XTT | 0.3 µM |
| CC(C)=CCN1Cc2cccc3[nH]c(=S)n(c23)C[C@@H]1C | UC38-R(RT-Y181C | RT-Y181C | cytopathic effect / XTT | 1.8 µM |
| Cc1cn([C@H]2C[C@H](N=[N+]=[N-])[C@@H](CO)O2)c(=O)[nH]c1=O | LAV | - | cytopathic effect / XTT | 0.0005 µM |

A second listing of 3 rows from above:

{"SMILES": "O=S1(c2ccccc2)=NC(=S)Nc2ccccc21", "strain": "KELL", "method": "cytopathic effect / XTT", "value": "5.07 µM"}
{"SMILES": "Cc1ccnc2c1NC(=O)c1cccnc1N2C1CC1", "strain": "RF", "method": "XTT", "value": "0.2 µM"}
{"SMILES": "C/C=C/CSc1cc(NC(=S)c2ccsc2C)ccc1Cl", "strain": "3TC-RS (RT-M184I)", "changes": "RT-M184I", "method": "cytopathic effect / XTT", "value": "0.1 µM"}

Rows are shuffled and stem from different studies. Blank or dashed fields: not listed here.